# Reference: ChEMBL document CHEMBL2417542 (Bioorg Med Chem Lett, 2013)
# System: MT2
# Test: Cytotoxicity against human MT2 cells assessed as growth inhibition
# Type: cell-based
row,SMILES,CC50 [µM]
1,Cc1cc(C)c(Nc2cc(OCCCN3CCOCC3)nc(Nc3ccc(C#N)cc3)n2)c(C)c1,3.1
2,Cc1cc(C)c(Nc2nc(Nc3ccc(C#N)cc3)nc(OCCN3CCOCC3)n2)c(C)c1,95
3,Cc1cc(/C=C/C#N)cc(C)c1Nc1nc(Nc2ccc(C#N)cc2)nc(OCCCN2CCOCC2)n1,4.5
4,CCc1cc(F)c(Nc2nc(Nc3ccc(C#N)cc3)nc(OCCCN3CCOCC3)n2)c(F)c1,13
5,CC(C)c1cc(F)c(Nc2nc(Nc3ccc(C#N)cc3)nc(OCCCN3CCOCC3)n2)c(F)c1,1.5
6,N#Cc1ccc(Nc2nc(Nc3c(F)cc(C4CC4)cc3F)nc(OCCCN3CCOCC3)n2)cc1,2.2
7,Cc1cc(C)c(Nc2nc(Nc3ccc(C#N)cc3)nc(OCCC3CCNCC3)n2)c(C)c1,4.2
